The target of this assay is T1, cAMP-specific 3',5'-cyclic phosphodiesterase 4B (Crotalus adamanteus) (UniProt J3SE37).
T1 sequence (whole entry): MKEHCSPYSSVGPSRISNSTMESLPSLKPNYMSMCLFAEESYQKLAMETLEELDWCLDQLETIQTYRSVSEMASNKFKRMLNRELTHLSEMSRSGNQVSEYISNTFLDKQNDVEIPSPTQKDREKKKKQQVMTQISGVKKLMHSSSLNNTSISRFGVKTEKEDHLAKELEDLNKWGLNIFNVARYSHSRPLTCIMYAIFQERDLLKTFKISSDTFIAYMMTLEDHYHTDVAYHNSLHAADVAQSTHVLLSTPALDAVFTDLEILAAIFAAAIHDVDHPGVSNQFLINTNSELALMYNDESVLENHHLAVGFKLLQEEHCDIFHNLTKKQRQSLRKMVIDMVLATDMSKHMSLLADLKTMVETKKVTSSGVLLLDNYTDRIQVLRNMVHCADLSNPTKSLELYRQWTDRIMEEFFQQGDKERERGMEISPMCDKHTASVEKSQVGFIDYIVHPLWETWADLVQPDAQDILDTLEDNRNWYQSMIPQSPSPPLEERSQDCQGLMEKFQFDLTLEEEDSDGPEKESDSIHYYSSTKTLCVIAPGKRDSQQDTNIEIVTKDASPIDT
Nature of the assay: Inhibition of Serpentes (snake) phosphodiesterase using bis(p-nitrophenyl)phosphate as substrate at 500 uM incubated for 30 min prior to substrate addition by spectrophotometric analysis.

Activity calls are given as the source filed them. No cut-off for these calls is given here.

Turning to `Cc1cc(C)n(CN(CCO)Cn2nc(C)cc2C)n1`, the inhibition result was “inactive”.
As for `Cc1cc(C)n(CN(Cn2nc(C)cc2C)C2CCCCC2)n1`, the inhibition result is “inactive”.
Consider `Cc1cc(C)n(CO)n1`, for which the inhibition result was “inactive”.
As to `Cc1cc(CN(CCO)Cc2cc(C)n(C)n2)nn1C`, the inhibition result was “inactive”.

Values taken from ChEMBL document CHEMBL3045895 (Med Chem Res, 2012).
